Pooled drug test results. Numbers come from NIAID ChemDB, via PubChem.

All rows: tests in culture; species: HIV-1; read by: syncytia; measure: EC50

An empty or dashed field is not shown. ECn: concentration that inhibits the pathogen or its effect by n%. Lines come from different laboratories, so protocols vary.

compound,setting,changes,strain,cells,result
CC1=C(C(=O)Nc2ccc(Cl)c(/C=N/OC(C)(C)C)c2)CCCO1,,RT-L100I,,CEM,1.3 µM
COc1c2c(cc3c1[C@H](c1ccc(O)c(Oc4ccccc4)c1)[C@H]1C(=O)OC[C@@H]1C3)OCO2,,,IIIB,SUP-T1/H9(HIV-1IIIB) + Sup-T1,2.43 µM
O=C(c1cc2c([nH]c3ccccc32)c(-c2cccs2)n1)N1CCC(c2ccccc2F)CC1,,,IIIB,C8166,18.8 µM
COc1ccc(NC(=S)OC(C)C)cc1CC(=O)OC(C)C,,RT-V106A,,CEM,0.739 µM
O=C(c1ccc(Cl)c(Cl)c1)c1ccc2[nH]c(=O)sc2c1,,,IIIB,CEM,>8 µg/mL
CC(C)OC(=O)c1cc(NC(=S)c2ccsc2)ccc1Cl,,RT-V106A,,CEM,25 µM
C=C(C)C1CC[C@]2(C(=O)O)CC[C@]3(C)C(CCC4[C@@]5(C)C[C@@H](C(=O)[O-])[C@H](O)C(C)(C)C5CC[C@]43C)C12,,,MC99 (Tat/Rev defective),1A2,5.6 µg/mL
Cc1occc1C(=S)Nc1ccc(Cl)c(C(=O)OC(C)C)c1,,RT-L100I,,CEM,1.7 µM
CCCCC(=O)c1ccc2c(c1)sc(=O)n2CCN1CCCCC1,,,IIIB,CEM,>8 µg/mL
CCC(CC)COC(=O)c1cc(NC(=S)OC(C)C)ccc1Cl,,RT-E138K,,CEM,1.397 µM
Cc1occc1C(=S)Nc1ccc(Cl)c(/C=N/OCc2ccccc2)c1,,RT-L100I,,CEM,>2.6 µM
CC(C)C[C@H](NC(=O)[C@@H](N)[C@@H](C)O)C(=O)N[C@@H](CC(N)=O)C(=O)N[C@@H](Cc1ccccc1)C(=O)O,,,,PBL,>200 µg/mL
CC(C)(C)[Si](C)(C)OC[C@H]1O[C@@H](n2cnc3c(=O)n(CC(=O)O)cnc32)[C@H](O)[C@@H]1O[Si](C)(C)C(C)(C)C,,,IIIB,CEM,≥50 µM
CC(/C=C/C=C\C=C\C=C(/C)C(=O)NC(C)CO)=C\C(C)C(O)/C(C)=C/C(C)CCc1ccccc1,,,IIIB,MOLT-4/IIIB + MOLT-4,>6.6 µM
CNOC(=O)Cn1c(=O)c(C)cn([C@@H]2O[C@H](CO[Si](C)(C)C(C)(C)C)[C@@H](O[Si](C)(C)C(C)(C)C)[C@H]2O)c1=O,,,IIIB,CEM,≥10 µM
OC[C@H]1O[C@@H]2O[C@H]3[C@H](O)[C@@H](O)[C@@H](O[C@H]4[C@H](O)[C@@H](O)[C@@H](O[C@H]5[C@H](O)[C@@H](O)[C@@H](O[C@H]6[C@H](O)[C@@H](O)[C@@H](O[C@H]7[C@H](O)[C@@H](O)[C@@H](O[C@H]8[C@H](O)[C@@H](O)[C@@H](O[C@H]1[C@H](O)[C@H]2O)O[C@@H]8CO)O[C@@H]7CO)O[C@@H]6CO)O[C@@H]5CO)O[C@@H]4CO)O[C@@H]3CO,,,IIIB,SupT1 + Sup-T1,>2500 µM
CC(C)=CCOc1cc(NC(=S)c2ccsc2C)ccc1Cl,,RT-Y181C,,CEM,0.037 µM
C=CCOC(=O)c1cc(NC(=S)OC(C)C)ccc1Cl,,RT-V106A,,CEM,0.318 µM
COC(=O)CCCCn1c(=O)c(C)cn([C@@H]2O[C@H](CO[Si](C)(C)C(C)(C)C)[C@@H](O)[C@H]2O[Si](C)(C)C(C)(C)C)c1=O,,,IIIB,CEM,>10 µM
COc1cc(C[C@@H](C)[C@@H](C)Cc2cc(O)c(OC)c(OC)c2)cc(O)c1OC,,,IIIB,C8166,2.26 µg/mL
C[C@H](CCC(=O)N[C@@H](Cc1cc(I)c(O)cc1I)C(=O)O)[C@H]1CC[C@H]2[C@@H]3CCC4C[C@H](O)CC[C@]4(C)[C@H]3C[C@H](O)[C@]12C,,,IIIB,H9,<0.001 µg/mL
CC(C)C[C@H](NC(=O)[C@@H](NC(=O)[C@H](Cc1c[nH]c2ccccc12)NC(=O)CCCCC(=O)Nc1ccn([C@H]2CC[C@@H](CO)O2)c(=O)n1)C(C)C)[C@@H](O)CC(=O)NC(Cc1ccccc1)c1ccccc1,,,,MT-4,10 µM
C=C(C)[C@]1(O)C[C@@H](C)[C@@]2(O)[C@H]([C@H]1OC(=O)/C=C/C=C/CCCCC)[C@@H]1O[C@]1(CO)[C@@H](O)[C@]1(O)C(=O)C(C)=C[C@H]12,,,A17,C8166,0.00632 µM
CC(C)OC(=S)Nc1ccc(Cl)c(C(=O)O)c1,,,IIIB,CEM,>36.53 µM
O=C(c1cc2c([nH]c3ccccc32)c(-c2cccs2)n1)N1CCC(c2ccc(F)cc2)CC1,,,IIIB,C8166,118.8 µM
COc1ccccc1C(=S)Nc1ccc(Cl)c(C(=O)OC(C)C)c1,,RT-L100I,,CEM,8.7 µM
COc1cc2c(c(OC)c1OC)-c1c(cc3c(c1OC)OCO3)[C@H](OC(=O)c1ccccc1)[C@@](C)(O)[C@@H](C)C2,,,IIIB,C8166,20.4 µg/mL
CC1=C(C(=S)Nc2ccc(Cl)c(C=NOC(C)(C)C)c2)CCCO1,,RT-V106A,,CEM,0.067 µM
CO/N=C(\C)COc1cc(NC(=S)OC(C)C)ccc1Cl,,RT-Y181C,,CEM,12.09 µM
CSCC[C@H](N)C(=O)N[C@H](C(=O)N[C@@H](CC(C)C)C(=O)N[C@@H](CC(N)=O)C(=O)N[C@@H](Cc1ccccc1)C(=O)O)[C@@H](C)O,,,,PBL,>200 µg/mL
CC(C)C[C@H](NC(=O)[C@@H](NC(=O)[C@@H](N)Cc1c[nH]c2ccccc12)C(C)C)[C@@H](O)CC(=O)NC(Cc1ccccc1)c1ccccc1,,,,MT-4,5 µM
CC[C@H](C)[C@H](NC(=O)[C@H](CCC(N)=O)NC(=O)[C@@H]1CCCN1C(C)=O)C(=O)N[C@H](C(=O)N[C@@H](CC(C)C)C(=O)O)[C@@H](C)O,,,,PBL,>200 µg/mL
CSC1=NS(=O)(=O)N([C@@H]2O[C@H](COC(=O)c3ccccc3)[C@@H](OC(=O)c3ccccc3)[C@H]2OC(=O)c2ccccc2)C(=O)N1,,,IIIB,CEM + CEM-SS,>40 µg/mL
Cc1sccc1C(=S)Nc1ccc(Cl)c(C(=O)OC2CCCCC2)c1,,RT-V106A,,CEM,0.06 µM
C/C=C/COc1cc(NC(=S)OC(C)C)ccc1Cl,,RT-V106A,,CEM,1.668 µM
Cc1sccc1C(=S)Nc1ccc(Cl)c(OCCC(C)C)c1,,RT-L100I,,CEM,0.082 µM
CC[C@@H](C)OC(=S)Nc1ccc(Cl)c(C(=O)OC(C)C)c1,,RT-V106A,,CEM,0.121 µM
CN1C(=O)C(c2cc(Cl)c(O)c(Cl)c2)NC(=O)[C@@H]2NC(=O)C(c3cc(Cl)c(O)c(Cl)c3)NC(=O)[C@H](NC(=O)C(=O)c3cc(Cl)c(O)c(Cl)c3)Cc3c[nH]c4c(cccc34)-c3cc2cc(c3O)Oc2ccc(cc2)CC1C(=O)NC(C(=O)O)c1ccc(O)cc1,,,IIIB,MOLT-4,1.1 µM
Cc1nnc(C(=O)NC(C)(C)c2nc(C(=O)NCc3ccc(F)cc3)c(O)c(=O)n2C)o1,,,BaL,PBMC,0.001 µM
OC[C@H]1O[C@@H](c2cc(Cl)c(F)cc2F)C[C@@H]1O,,,IIIB,CEM,>250 µM
O=C(Nc1ccc(Cl)c(C(=O)OC2CCCCC2)c1)c1ccccc1F,,RT-Y181C,IIIB,CEM,5 µg/mL
CC(C)OC(=S)Nc1ccc(Cl)c(C(=O)OCC[Si](C)(C)C)c1,,RT-V106A,,CEM,14.71 µM
O=C(c1ccccc1)c1ccc2c(c1)oc(=O)n2CCN1CCOCC1,,,IIIB,CEM,>8 µg/mL
COc1ccc([C@H]2c3c(cc4c(c3OC)OCO4)C[C@H]3CSC[C@@H]32)cc1OCc1ccccc1,,,IIIB,SUP-T1/H9(HIV-1IIIB) + Sup-T1,1.37 µM
CC(C)OC(=O)c1cc(NC(=S)c2ccco2)ccc1Cl,,,IIIB,CEM,1.4 µM
Nc1nc2c(nc(Br)n2CCOCP(=O)(O)O)c(=O)[nH]1,4 d,,IIIB,CEM,>0.16 µg/mL
CNOC(=O)Cn1c(=O)c(C)cn([C@@H]2O[C@H](CO[Si](C)(C)C(C)(C)C)[C@@H](O)[C@H]2O[Si](C)(C)C(C)(C)C)c1=O,,,IIIB,CEM,≥10 µM
O=C(c1ccccc1)c1ccc2c(c1)oc(=O)n2CCN1CCCCC1,,,IIIB,CEM,>8 µg/mL
C[C@H](CCC(=O)O)[C@H]1CC[C@H]2[C@@H]3CC[C@@H]4C[C@H](O)CC[C@]4(C)[C@H]3C[C@H](O)[C@]12C,,,IIIB,H9,<10 µg/mL
O=c1oc2cc(Cc3ccccc3)ccc2n1CCN1CCOCC1,,,IIIB,CEM,>8 µg/mL
COc1cc(O)c(CC=C(C)C)c(O)c1C(=O)/C=C/c1ccc(O)cc1,,,IIIB,C8166,2 µM
CCCCC(=O)c1ccc2c(c1)sc(=O)n2CC=O,,,IIIB,CEM,>8 µg/mL
O=C(c1cc2c([nH]c3ccccc32)c(-c2cccs2)n1)N1CCC(c2ccc(Cl)cc2)CC1,,,IIIB,C8166,>200 µM
COCCOC(=S)Nc1ccc(Cl)c(C(=O)OC(C)C)c1,,RT-E138K,,CEM,18.08 µM
CC(=O)N[C@H](C(=O)N[C@@H](CC(C)C)C(=O)N[C@@H](CC(N)=O)C(=O)N[C@@H](Cc1ccccc1)C(N)=O)[C@@H](C)O,,,,PBL,>200 µg/mL
Cc1cn([C@@H]2O[C@H](CO[Si](C)(C)C(C)(C)C)[C@@H](O)[C@H]2O[Si](C)(C)C(C)(C)C)c(=O)n(CCC(=O)O)c1=O,,,IIIB,CEM,>10 µM
CO/N=C/c1cc(NC(=S)c2ccoc2C)ccc1OC,,RT-L100I,,CEM,0.495 µM
CC[C@H](/C=C/[C@@H](C)[C@H]1CC[C@H]2[C@@H]3CC=C4C[C@@H](O[C@@H]5O[C@H](CO)[C@@H](O)[C@H](O)[C@H]5O)CC[C@]4(C)[C@H]3CC[C@]12C)C(C)C,,,MC99 (Tat/Rev defective),1A2,73.6 µg/mL
CCOC(=O)c1cc(NC(=S)OC(C)C)ccc1Cl,,RT-E138K,,CEM,2.485 µM
O=C(Nc1ccc(Cl)c(C(=O)OC2CCCCC2)c1)c1ccccc1F,,RT-E138K,,CEM,11 µM
O=C(c1cccc(F)c1)c1ccc2[nH]c(=O)oc2c1,,,IIIB,CEM,>8 µg/mL
C/C=C/COc1cc(NC(=S)c2ccn(C)c2C)ccc1Cl,,,IIIB,CEM,0.058 µM
Cc1cn([C@@H]2O[C@H](CO[Si](C)(C)C(C)(C)C)[C@@H](O)[C@H]2O[Si](C)(C)C(C)(C)C)c(=O)n(Cc2nn[nH]n2)c1=O,,,IIIB,CEM,>10 µM
CSC1=NS(=O)(=O)N([C@@H]2O[C@H](CO)[C@@H](O)[C@H](O)[C@H]2O)C(=O)N1,,,IIIB,CEM + CEM-SS,>200 µg/mL
CC(C)OC(=O)c1cc(NC(=S)OCC2CC2)ccc1Cl,,,IIIB,CEM,0.2135 µM
Cc1cn([C@@H]2OC(O[Si](C)(C)C(C)(C)C)C3(OS(=O)(=O)C=C3NCCC(=O)OCc3ccccc3)C2O[Si](C)(C)C(C)(C)C)c(=O)n(C)c1=O,,,IIIB,CEM,>250 µM
CC(C)OC(=S)Nc1ccc(Cl)c(C(=O)OC2(C)COC2)c1,,RT-V106A,,CEM,2.472 µM
Cc1occc1C(=S)Nc1ccc(Cl)c(OC(=O)OC(C)C)c1,,RT-K103N,,CEM,12 µM
Nc1nc(N)c2nn(C[C@@H](CF)OCP(=O)(O)O)nc2n1,,,IIIB,CEM,50 µg/mL
Cn1c(=O)sc2cc(C(=O)c3ccc(Cl)c([N+](=O)[O-])c3)ccc21,,,IIIB,CEM,4.6 µg/mL
Cc1ccoc1C(=S)Nc1ccc(Cl)c(C(=O)OC(C)C)c1,,RT-V106A,,CEM,16 µM
CCCCCOC(=S)Nc1ccc(Cl)c(C(=O)OC(C)C)c1,,RT-L100I,,CEM,16 µM
O=C(c1cc2c([nH]c3ccccc32)c(-c2cccs2)n1)N1CCC(c2ccc([N+](=O)[O-])cc2)CC1,,,IIIB,C8166,3.8 µM
C=C(C)COc1cc(NC(=S)OC(C)C)ccc1Cl,,RT-V106A,,CEM,13.34 µM
Cn1cccc1C(=S)Nc1ccc(Cl)c(/C=N/OC(C)(C)C)c1,,RT-Y188L,,CEM,>5.6 µM
CCCOC(=S)Nc1ccc(Cl)c(C(=O)OC(C)C)c1,,RT-L100I,,CEM,8.55 µM
CCN1C[C@H](C)n2c(c(O)c3c(=O)n(Cc4ccc(F)c(Cl)c4)nc(C(=O)NC)c32)C1=O,,,IIIB,C8166,0.0115 µM
CC(C)OC(=S)Nc1ccc(Cl)c(C(=O)OCC2CC2)c1,,RT-V106A,,CEM,8.236 µM
CSCC[C@H](NC(=O)[C@H](Cc1cnc[nH]1)NC(C)=O)C(=O)N[C@H](C(=O)N[C@@H](CC(C)C)C(=O)N[C@@H](CC(N)=O)C(=O)N[C@@H](Cc1ccccc1)C(=O)O)[C@@H](C)O,,,,PBL,>200 µg/mL

Again, the opening 11 rows:

compound,setting,changes,strain,cells,result
CC1=C(C(=O)Nc2ccc(Cl)c(/C=N/OC(C)(C)C)c2)CCCO1,,RT-L100I,,CEM,1.3 µM
COc1c2c(cc3c1[C@H](c1ccc(O)c(Oc4ccccc4)c1)[C@H]1C(=O)OC[C@@H]1C3)OCO2,,,IIIB,SUP-T1/H9(HIV-1IIIB) + Sup-T1,2.43 µM
O=C(c1cc2c([nH]c3ccccc32)c(-c2cccs2)n1)N1CCC(c2ccccc2F)CC1,,,IIIB,C8166,18.8 µM
COc1ccc(NC(=S)OC(C)C)cc1CC(=O)OC(C)C,,RT-V106A,,CEM,0.739 µM
O=C(c1ccc(Cl)c(Cl)c1)c1ccc2[nH]c(=O)sc2c1,,,IIIB,CEM,>8 µg/mL
CC(C)OC(=O)c1cc(NC(=S)c2ccsc2)ccc1Cl,,RT-V106A,,CEM,25 µM
C=C(C)C1CC[C@]2(C(=O)O)CC[C@]3(C)C(CCC4[C@@]5(C)C[C@@H](C(=O)[O-])[C@H](O)C(C)(C)C5CC[C@]43C)C12,,,MC99 (Tat/Rev defective),1A2,5.6 µg/mL
Cc1occc1C(=S)Nc1ccc(Cl)c(C(=O)OC(C)C)c1,,RT-L100I,,CEM,1.7 µM
CCCCC(=O)c1ccc2c(c1)sc(=O)n2CCN1CCCCC1,,,IIIB,CEM,>8 µg/mL
CCC(CC)COC(=O)c1cc(NC(=S)OC(C)C)ccc1Cl,,RT-E138K,,CEM,1.397 µM
Cc1occc1C(=S)Nc1ccc(Cl)c(/C=N/OCc2ccccc2)c1,,RT-L100I,,CEM,>2.6 µM